Laboratory results: PubChem BioAssay AID504761 (Drosophila RNAi Screening Center, 2011)
Aim: 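Fly genes whose silencing reduces dengue virus type 2 infection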 (primary screen). Cell system: D.Mel-2 cells from Drosophila. Knock-down reagent: long dsRNA against Drosophila genes. Challenge: infection with dengue virus type 2; dose and infection time not stated. Detection: 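Per well on two replicate plates, imaging gave the percent of cells positive for viral envelope protein, ranked by infection, and a nuclear count of cells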. Scale: infection score: higher = more virus-infected cells; cell count: higher = more cells in the well. Hit rule: 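Very low infection ranking in both replicate wells (chance probability at most 0.065), then a retest showing infection dropped 1.5-fold or more at p below 0.05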. Meaning of the calls: active = confirmed: knock-down lowers infection; inactive = not picked or not confirmed.
The deposit covers about 22,000 reagents; below is an unselected part of those that have a named target and a result. Of all reagents, 116 (0.52%) are marked active. 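Calls depend on retest data that are not deposited; infection was ranked per plate without normalising between plates; the unit of the infection score is not given.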 Raw values are not corrected between plates. The numbers tell different reagents against one gene apart. Names joined by + are all predicted targets of the reagent. Not stated in the record: the amount of reagent, the time to read-out.

no.	gene knocked down	reagent	infection score, replicate 1	infection score, replicate 2	cell count, replicate 1	cell count, replicate 2	call
1	CG9777	1	1.35	2.48	6502	6521	inactive
2	eEFSec	1	3.71	0.97	6527	6696	inactive
3	His4:CG33883 + His4:CG33889 + His4:CG33899 + 20 more	1	10.5	3.62	5911	6466	inactive
4	His4:CG33883 + His4:CG33889 + His4:CG33899 + 20 more	2	7.55	14.9	6344	3659	inactive
5	CG32110	1	2.79	2.87	6135	5793	inactive
6	CG8043	1	10.7	10.8	4601	6038	inactive
7	tej	1	9.68	5.22	6898	6297	inactive
8	tej	2	26.4	19.5	5751	4530	inactive
9	CG2841	1	6.96	0.69	6713	6546	inactive
10	CG2841	2	7.11	1.84	6710	6681	inactive
11	CG31231	1	5.32	5.55	5564	4614	inactive
12	CG31231	2	15.6	8.99	4404	5939	inactive
13	CG13840	1	0.91	2.02	6373	6492	inactive
14	CG13840	2	8.66		2043	378	inactive
15	CG5043	1	2.69	7.71	6737	6717	inactive
16	CG5043	2	3.76	1.79	6308	5873	inactive
17	ItgaPS5	1	5.79	5.26	6600	6755	inactive
18	ItgaPS5	2	18.6	4.82	3657	1224	inactive
19	CG11367	1	1.66	0.88	6254	6397	inactive
20	Nup54	1	9.38	11.8	5417	5817	inactive
21	CG14915	1	2.34	1.92	6141	6035	inactive
22	CG14915	2	8.52	8.65	6457	5978	inactive
23	CG13192	1	3.75	15	6672	5632	inactive
24	CG33992 (retired record) + CG43755	1	1.41	0.57	6169	6470	inactive
25	Nmdmc	1		15.2	467	6079	inactive
26	Nmdmc	2	3.52	4.4	5960	5881	inactive
27	Cyp6a19	1	1.56	2.64	6166	6702	active
28	Invadolysin	1	2.05	2.79	6969	6961	inactive
29	IP3K2	1	16.6	17.1	6089	6313	inactive
30	IP3K2	2	3.45	4.85	6240	6638	inactive
31	IP3K2	3	1.38	4.91	6395	6072	inactive
32	IP3K2	4	6.99	7.93	5597	6140	inactive
33	IP3K2	5	27.1	22	5443	5286	inactive
34	sv	1	5.56	1.41	5254	6261	inactive
35	sv	2	15.2	9.42	6626	6054	inactive
36	Arp3	1	12.2	10.6	5097	5719	inactive
37	Arp3	2	0.26	16.8	380	1514	inactive
38	oys	1	0.4	0.37	6187	5202	inactive
39	oys	2	33.2	16.5	4010	6088	inactive
40	oys	3	1.7	4.05	6469	6045	inactive
41	odd	1	2.38	5.05	5888	6395	inactive
42	CG8034	1	6.12	13.6	6162	6286	inactive
43	CG8034	2	8.85	1.99	5992	6021	inactive
44	CG15705	1		4.09	426	660	inactive
45	CG15705	2	26.6	18.7	4658	5706	inactive
46	Set	1	13.2	12.9	6252	6262	inactive
47	CG18139 (retired record) + Hmx	1	8.73	1.5	2154	5800	inactive
48	Acp53C14b	1	13.7	11.7	6659	6530	inactive
49	CG8539	1	10.6	0.54	6698	6677	inactive
50	CG8539	2	8.17	6.95	6673	6708	inactive
51	CG8539	3	18.4	5.66	5586	7011	inactive
52	CG15570	1	5	3.27	6956	5987	inactive
53	Dtwd2 + Obp84a	1	4.19	22.9	6513	2259	inactive
54	Dtwd2 + Obp84a	2	4.07	2.14	6432	7042	inactive
55	Nph	1	6.05	1.88	4677	6646	inactive
56	CG17078	1	1.7	2.42	6547	6870	inactive
57	CG17078	2	2.67	10	5960	5690	inactive
58	Tengl1	1	2.87	3.03	6134	6336	inactive
59	ND-24	1	1.3	1.83	6366	6386	inactive
60	CG14086	1	6.51	5.92	6114	6423	inactive
61	CG8407	1	8.71	8.98	6358	2360	inactive
62	PGAP2	1	7.24	2.33	5827	5805	inactive
63	PGAP2	2	12	20.2	5095	5434	inactive
64	Cpr49Ah	1	2.58	13.3	6820	6020	inactive
65	Cpr49Ah	2	21.9	23.1	5155	5518	inactive
66	CG13995	1	2.1	1.88	6475	6002	inactive
67	CG13995	2	16.9	7.39	5289	6088	inactive
68	CG13995	3	1.35	2.19	5698	6119	inactive
69	CG13995	4	15.1	16.3	4345	3400	inactive
70	Cyp9f2	1	17.8	28.3	5304	4627	inactive
71	Cpr65Au	1	17.9	16	3437	6752	inactive
72	Ndc80	1	11.4	15.7	6330	6251	inactive
73	Ndc80	2	10.2	9.85	4130	2750	inactive
74	CG8229	1	6.03	5.26	6536	6819	inactive
75	CG8229	2	14.6	11.3	6660	6675	inactive
